A mixed list of measured activities; the numbers were collected in NIAID ChemDB.

All rows: tests on isolated targets

Rows are shuffled and stem from different studies.

smiles,endpoint,protein,strain,read by,organism,tested at,result
Nc1nc(-c2ccc(NC(=O)CN(CC3CCCCC3)C(=O)C3CCNCC3)cc2)cs1,IC50,Helicase-primase,KOS,,Herpes simplex virus 1,,>50 µM
C/C(=N\NC(=S)NNC(=S)Nc1cccc(Cl)c1)c1ccccn1,IC50,Ribonucleotide reductase,,,Herpes simplex virus 1,,5 µM
C/C=C/c1cn([C@@H]2O[C@H](CO)[C@@H](O)[C@@H]2O)c(=O)[nH]c1=O,inhibition,Thymidine kinase,91075,,Herpes simplex virus 1,5 µM,<0%
Nc1nc(-c2ccc(NC(=O)CCN(Cc3cccc(F)c3)C(=O)c3ccccc3)cc2)cs1,IC50,Helicase-primase,F,,Herpes simplex virus 1,,1.3 µM
Nc1nc2c(ncn2[C@@H]2O[C@H](CO)[C@@H](OP(=O)(O)O)[C@H]2O)c(=O)[nH]1,inhibition,DNA polymerase,,,Herpes simplex virus 1,2000 µM,85.9%
C/C=C/c1cn([C@H]2C[C@H](O)[C@@H](CO)O2)c(=O)[nH]c1=O,inhibition,Thymidine kinase,C42,,Herpes simplex virus 1,100 µM,100%
C[C@@H](c1ccccc1)N(CC(=O)Nc1ccc(-c2csc(N)n2)cc1)C(=O)c1ccncc1,IC50,Helicase,,,Herpes simplex virus 1,,1.3 µM
C/C(=N\NC(=S)NNC(=S)Nc1ccc([N+](=O)[O-])cc1)c1ccccn1,IC50,Ribonucleotide reductase,,,Herpes simplex virus 1,,>5 µM
NC(=O)c1ncn([C@@H]2O[C@H](COP(=O)(O)O)[C@@H](O)[C@H]2O)n1,inhibition,DNA polymerase,,,Herpes simplex virus 1,2000 µM,91.2%
CC[C@@H](NC(=O)[C@@H](NC(=O)[C@H](CC(=O)C(C)(C)C)NC(=O)[C@@H](NC(=O)NC1[C@H](C)CCC[C@@H]1C)C(C)(C)C)C1(C(=O)O)CCCC1)C(C)(C)C,IC50,Ribonucleotide reductase,,radioligand binding / binding,Herpes simplex virus 1,,<0.001 µM
O=c1[nH]c(=O)n([C@@H]2O[C@H](CO)[C@@H](O)[C@@H]2F)cc1/C=C/Br,Ki,DTHD kinase,KOS,,Herpes simplex virus 1,,0.67 µM
C/C(=N\NC(=S)NNC(=S)Nc1cccc(C)c1)c1ccccn1,IC50,Ribonucleotide reductase,,,Herpes simplex virus 1,,>5 µM
Nc1nc2c(ncn2CC[C@@H](CO)COP(=O)(O)OP(=O)(O)OP(=O)(O)O)c(=O)[nH]1,Ki,DNA polymerase,,,Herpes simplex virus 2,,5.8 µM
CC(C)(C)OC(=O)[C@H](Cc1ccccc1)NC(=O)Nc1ccc(-c2csc(N)n2)cc1,IC50,Helicase-primase,KOS,,Herpes simplex virus 1,,0.07 µM
CC[C@@H](NC(=O)[C@@H](NC(=O)[C@@H](CC(=O)[C@@H](NC(=O)NC1[C@H](C)CCC[C@@H]1C)C(C)(C)C)CC(=O)N1CCCC1)C1(C(=O)O)CCCC1)C(C)(C)C,IC50,Ribonucleotide reductase,,radioligand binding / binding,Herpes simplex virus 1,,<0.001 µM
O=c1ccn([C@@H]2O[C@H](COP(=O)(O)O)[C@@H](O)[C@H]2O)c(=O)[nH]1,inhibition,DNA polymerase,,,Herpes simplex virus 1,2000 µM,76.1%
C[C@@H]1CCC[C@H](C)C1NC(=O)N[C@H](C(=O)C[C@@H](CC(=O)C(C)(C)C)C(=O)N[C@H](C(=O)NCC(C)(C)C)C1(C(=O)O)CCCC1)C(C)(C)C,IC50,Ribonucleotide reductase,,radioligand binding / binding,Herpes simplex virus 1,,<0.001 µM
Nc1nc(-c2ccc(NC(=O)[C@@H]3CCCN3C(=O)c3ccccc3)cc2)cs1,IC50,Helicase-primase,KOS,,Herpes simplex virus 1,,1.5 µM
O=c1[nH]c(=O)n([C@@H]2O[C@H](CO)[C@@H](O)[C@@H]2O)cc1/C=C/Br,inhibition,Thymidine kinase,91075,,Herpes simplex virus 1,10 µM,<0%
O=c1[nH]cnc2c1ncn2[C@@H]1O[C@H](CO)[C@@H](O)[C@H]1O,inhibition,DNA polymerase,,,Herpes simplex virus 1,2000 µM,96%
O=c1[nH]c(=O)n([C@@H]2O[C@H](CO)[C@@H](O)[C@@H]2O)cc1/C=C/Br,Ki,DTHD kinase,333,,Herpes simplex virus 2,,54.67 µM
C/C(=N\NC(=S)NNC(=S)Nc1ccc(Br)cc1)c1ccccn1,IC50,Ribonucleotide reductase,,,Herpes simplex virus 1,,>5 µM
Cc1cn([C@@H]2O[C@H](CO)[C@@H](O)[C@@H]2Cl)c(=O)nc1N,Ki,DTHD kinase,KOS,,Herpes simplex virus 1,,15.88 µM
Nc1nc(N)c2ncn([C@@H]3O[C@H](COP(=O)(O)O)[C@@H](O)[C@H]3O)c2n1,IC50,DNA polymerase,,,Herpes simplex virus 1,,<2000 µM
O=c1[nH]c(=O)n([C@H]2C[C@H](O)[C@@H](CO)O2)cc1/C=C/Br,Ki,DTHD kinase,KOS,,Herpes simplex virus 1,,0.24 µM
C#C[C@H]1O[C@@H](n2cc(C)c(=O)[nH]c2=O)C[C@@H]1O,IC50,Thymidine kinase,KOS,,Herpes simplex virus 1,,6 µM

For reference, 2 entries again:

smiles,endpoint,protein,strain,read by,organism,tested at,result
C/C=C/c1cn([C@@H]2O[C@H](CO)[C@@H](O)[C@@H]2O)c(=O)[nH]c1=O,inhibition,Thymidine kinase,91075,,Herpes simplex virus 1,5 µM,<0%
C[C@@H](c1ccccc1)N(CC(=O)Nc1ccc(-c2csc(N)n2)cc1)C(=O)c1ccncc1,IC50,Helicase,,,Herpes simplex virus 1,,1.3 µM

Percent inhibition refers to the dose given; in toxicity tests it is the harm to the cells. An empty or dashed field is not shown. ICn: concentration for n% inhibition.